Source: US11364214B2, “Compositions and methods for treating eczema” (Dermala Inc., priority 2016, dated 2022)

System: HaCaT human keratinocyte cell line stimulated with SpA
Test: TNF-α release from HaCaT keratinocytes stimulated with Staphylococcal protein A (SpA), ELISA
Details: SpA 10 μg/mL, compound 0-100 mM applied prior and/or post stimulation

glyceryl tripropionate-tripropionin
inflammatory responses (TNF-α release) after SpA stimulation: displaying both the anti-S. aureus and anti-inflammatory properties
